Results of unrelated studies side by side (data: NIAID ChemDB).

All rows: growth or infection tests; agent: Mycobacterium avium complex; endpoint: MIC

a–b is a range or a potency band. Neighbouring rows are from separate reports.

structure,strain or isolate,value
OCCN=c1ssc2ccccc12,AN2,8 µg/mL
CC[C@H]1OC(=O)[C@H](C)[C@@H](OC2C[C@@](C)(OC)[C@@H](O)[C@H](C)O2)[C@H](C)[C@@H](O[C@@H]2O[C@H](C)C[C@H](N(C)C)[C@H]2O)C(C)(O)C[C@@H](C)/C(=N\OCCCc2ccccc2)[C@H](C)[C@@H](O)[C@]1(C)O,20092 (clarithromycin-resistant),12.5 µg/mL
CC[C@H]1OC(=O)[C@H](C)[C@@H](O[C@H]2C[C@@](C)(OC)[C@@H](O)[C@H](C)O2)[C@H](C)[C@@H](O[C@@H]2O[C@H](C)C[C@H](N(C)C)[C@H]2O)[C@](C)(OC)C[C@@H](C)C(=O)[C@H](C)[C@@H](O)[C@]1(C)O,MO-1,8 µg/mL
CC(C)(C)NC(=O)OCCn1sc2ccccc2c1=S,AN1,2 µg/mL
COc1ccccc1CSc1ncccn1,NJ211,>12.8 µg/mL
CC(C)N=C(N)/N=C(\N)Nc1ccc(Cl)cc1,101,>128 µg/mL
CC[C@H]1OC(=O)[C@H](C)[C@@H](OC2C[C@@](C)(OC)[C@@H](O)[C@H](C)O2)[C@H](C)[C@@H](O[C@@H]2O[C@H](C)C[C@H](N(C)C)[C@H]2O)C(C)(O)C[C@@H](C)/C(=N\OCCC2CCCCC2)[C@H](C)[C@@H](O)[C@]1(C)O,20092 (clarithromycin-resistant),>50 µg/mL
CC(C)N=C(N)N(OCCCOc1cc(Cl)c(Cl)cc1Cl)C(=N)N,101,16 µg/mL
CC[C@H]1OC(=O)[C@H](C)[C@@H](OC2C[C@@](C)(OC)[C@@H](O)[C@H](C)O2)[C@H](C)[C@@H](O[C@@H]2O[C@H](C)C[C@H](N(C)C)[C@H]2O)C(C)(O)C[C@@H](C)/C(=N\OCCCCOc2ccccc2)[C@H](C)[C@@H](O)[C@]1(C)O,20096 (clarithromycin-resistant),6.25 µg/mL
CO[C@H]1/C=C/O[C@@]2(C)Oc3c(C)c(O)c4c(O)c(c5c(c4c3C2=O)NC2(CCN(CC(C)C)CC2)N=5)=NC(=O)/C(C)=C\C=C\[C@H](C)[C@H](O)[C@@H](C)[C@@H](O)[C@@H](C)[C@H](OC(C)=O)[C@@H]1C,1317-2,0.25 µg/mL
CC(C)N=c1cc2n(-c3ccc(Cl)cc3)c3ccccc3nc-2cc1Nc1ccc(Cl)cc1,715,0.5 µg/mL
CO[C@H]1/C=C/O[C@@]2(C)Oc3c(C)c(O)c4c(=O)c(c5oc6cc(N7CCN(CC(C)C)CC7)cc(=O)c6nc5c4c3=C2O)NC(=O)/C(C)=C\C=C\[C@H](C)[C@H](O)[C@@H](C)[C@@H](O)[C@@H](C)[C@H](OC(C)=O)[C@@H]1C,N-269 (HIV-),0.1 µg/mL
CC[C@H]1OC(=O)[C@H](C)[C@@H](O[C@H]2C[C@@](C)(OC)[C@@H](O)[C@H](C)O2)[C@H](C)[C@@H](O[C@@H]2O[C@H](C)C[C@H](N(C)C)[C@H]2O)[C@](C)(O)C[C@@H](C)CN(C)[C@H](C)[C@@H](O)[C@]1(C)O,T,8 µg/mL
CC1(C)N=C(N)N=C(N)N1OCCCOc1cc(Cl)c(Cl)cc1Cl,DW24,2 µg/mL
CCc1nc(N)nc(N)c1-c1ccc(Cl)cc1,DW27,32 µg/mL
CCN=c1cc2n(-c3ccc(Cl)cc3)c3ccccc3nc-2cc1Nc1ccc(Cl)cc1,453,0.25 µg/mL
Clc1nc(Sc2ncc[nH]2)c2[nH]cnc2n1,NJ211,>12.8 µg/mL
CN[C@@H]1[C@H](O[C@H]2[C@H](O[C@H]3[C@H](O)[C@@H](O)[C@H](N=C(N)N)[C@@H](O)[C@@H]3N=C(N)N)O[C@@H](C)[C@]2(O)C=O)O[C@@H](CO)[C@H](O)[C@H]1O,N-325 (HIV-),4 µg/mL
CC(C)N=C(N)/N=C(\N)NOCCCOc1cc(Cl)c(Cl)cc1Cl,3009,64 µg/mL
NNC(=O)c1ccncc1,13032,0.63–0.8 µg/mL
CC[C@H]1OC(=O)[C@H](C)[C@@H](O[C@H]2C[C@@](C)(OC)[C@@H](OC(C)=O)[C@H](C)O2)[C@H](C)[C@@H](O[C@@H]2O[C@H](C)C[C@H](N(C)C)[C@H]2O)C(C)(O)C[C@@H](C)/C(=N\OCCCOc2ccccc2)[C@H](C)[C@@H](O)[C@]1(C)O,20039 (clarithromycin-susceptible),1.56 µg/mL
CCCNC(=O)OCCN=c1ssc2ccccc12,ATCC 15769,4 µg/mL
C[C@@H]1CN(c2c(F)c(N)c3c(=O)c(C(=O)O)cn(C4CC4)c3c2F)C[C@H](C)N1,Isolate 90-1253,0.5 µg/mL
c1ccc(CSc2ncccn2)cc1,NJ211,>12.8 µg/mL
CO[C@H]1/C=C/O[C@@]2(C)Oc3c(C)c(O)c4c(O)c(c5c(c4c3C2=O)NC2(CCN(CC(C)C)CC2)N=5)=NC(=O)/C(C)=C\C=C\[C@H](C)[C@H](O)[C@@H](C)[C@@H](O)[C@@H](C)[C@H](OC(C)=O)[C@@H]1C,N-962 (HIV+),0.0625 µg/mL
CC(C)NC(=O)OCCn1sc2ccccc2c1=S,AN1,2 µg/mL
CC[C@@]1(O)OC(=O)[C@H](C)[C@@H](O[C@H]2C[C@@](C)(OC)[C@@H](O)[C@H](C)O2)[C@H](C)[C@@H](O[C@@H]2O[C@H](C)C[C@H](N(C)C)[C@H]2O)[C@](C)(OC)C[C@@H](C)C(=O)[C@H](C)[C@@H](O)[C@]1(C)O,MO-1,32 µg/mL
NNC(=O)c1ccncc1,N-238 (HIV-),4 µg/mL
COc1cccc(CSc2ccccn2)c1,NJ211,>12.8 µg/mL
CCCCNC(=O)OCCn1sc2ccccc2c1=S,ATCC 15769,4 µg/mL

Repeating the final 3 entries:

structure | strain or isolate | value
NNC(=O)c1ccncc1 | N-238 (HIV-) | 4 µg/mL
COc1cccc(CSc2ccccn2)c1 | NJ211 | >12.8 µg/mL
CCCCNC(=O)OCCn1sc2ccccc2c1=S | ATCC 15769 | 4 µg/mL